According to publication PMC3796514:
For at least one entry, the source does not settle the construct or the ends of the probe.

Molecular target: HapRV2G (functional wild-type HapR) (UniProt Q4F6W7)
Experiment: EMSA
Settings: recombinant protein; residues 1-203; protein details: N-terminal 6xHis (pET15b); label: 32P end label; probe letters rebuilt from the primers and the genome

Sequence | binding result
GAGTGAAGGCCAAAGTCATTGGGTCTATTTTAAAGCGATTGATAATGCCCCAGCCGCCAGCTTTGCTTCGGAAAATATTCGACTTTCTTGTAAACAAGCAATAAATCAAGGGCTGATCAAAGTTCACTCTTCTTATAAGAATGAGGACAACATCAAAAAACTCTTAAAAGATGGATAAATGCTGCCCAGTCGGCATAAACACTGGGTGACGCCAGCAAAATATTTGTTATTATCGACAAATCAATAAATAGGATCAGGATTGATCCTCAACTATCCAGTTTGTTGTACATGGGCGTTCTAGAACAAGATATCCAAGCAGAGCTTCAAAAACTGAAATCTCAGTTAGAACAAGTACGTTTGACACAAAGGGATACTTCGTTCAAATTTAACCGAGAGCAGCAAGTTCTTAAACGAATGGTCACTTCCTTGGCTACGACTTGCCGCGGCAGTAGCTCTCGACTAAACCA (double strand) [vc0900 promoter] | binds
GATCGGGATCCGATAACGTGTGGTAATGACATGTCTTCAATCCAAAAATTAAGTCAACATAAACCTCTATCTAAACGGTTGTTGTGCTTCTAATGGCACTCATATCAACGCATTTAAATACCTGCAGCGCAAAATTCGGCTGCTTATGTCACCTTATCAAGCCGGTTATCACCTAGAGTGGCGTATGTCTTTGCATACTTTAACTGTGAGATTGCTTTACATTACTTATCACAGAGGGAACGTAGTATATCTAAATAATAAGCATAAAGTGGAATACAAATATGCTGATTAGTCGAAAAACTGACATTATTCTCAATAATGAAAAAATGTAAAACAAAAGGCCACAAAGTTGTGACCTTTTAGTTTTTTATACTGACATTTAGCGATTTGTTAACCAGTATTGCGCATTCGAATTCCGATC (double strand) [aphA promoter] | binds
GGAATTCGACTCATGGGGACTTGCTGCTAACGTTGGCTTTGATTATATGCTCAATGATAGCTGGTTCCTCAACGCTTCTGTGTGGTATGCCAATATTGAAACAACGGCAACCTACAAAGCAGGTGCAGATGCCAAATCCACGGATGTTGAAATCAATCCTTGGGTATTTATGATCGCGGGTGGTTATAAGTTCTAACGCCCTATTTCGAAAATAAAGCCGCGAAATCGCGGCTTTATTTTTTTGTGGCCTCGATTTCATCATTTTTAGCGGTAGTGATTGTTTTCTAACGTAATCTCCATTCAGAGCCTGAGACGTACGTCAATCCCCTGTTGATACTGATAAATAGGTGTCAAATTTTAAAGGCGCAAACCTATCAGTAAGATTCTATCTTTATGATTTTCTTTTGTTTATTTCTGGCTTTCTTATCGAGTATTCCTACTTACTGAGTAGTTTGTGACACGTAAAGTGCACACTTTTTATTAACATTTTTTTAACTTTGGTTTGGTGTTTTTCATTGACTTGTACCACTTTGATTGAACGCGGTATTTCGCGTGCAATCGGCGTTGATGGGAGCGGTTCAACGCTTAATACATTCAACATCTCTAGGATTGAGAAATGAAAATGATACAACGTCCTCTGAATTGGTTAGTTCTGGCCGGAGCGGCAACTGAGAATTCC (double strand) [hapA promoter] | binds
